Experimental data taken from PMC9320654, “Study on In Vitro Metabolism and In Vivo Pharmacokinetics of Beauvericin” (Toxins, 2022).

Amino acid sequences for entries named in this document (tags omitted).
UniProt P11712, whole entry: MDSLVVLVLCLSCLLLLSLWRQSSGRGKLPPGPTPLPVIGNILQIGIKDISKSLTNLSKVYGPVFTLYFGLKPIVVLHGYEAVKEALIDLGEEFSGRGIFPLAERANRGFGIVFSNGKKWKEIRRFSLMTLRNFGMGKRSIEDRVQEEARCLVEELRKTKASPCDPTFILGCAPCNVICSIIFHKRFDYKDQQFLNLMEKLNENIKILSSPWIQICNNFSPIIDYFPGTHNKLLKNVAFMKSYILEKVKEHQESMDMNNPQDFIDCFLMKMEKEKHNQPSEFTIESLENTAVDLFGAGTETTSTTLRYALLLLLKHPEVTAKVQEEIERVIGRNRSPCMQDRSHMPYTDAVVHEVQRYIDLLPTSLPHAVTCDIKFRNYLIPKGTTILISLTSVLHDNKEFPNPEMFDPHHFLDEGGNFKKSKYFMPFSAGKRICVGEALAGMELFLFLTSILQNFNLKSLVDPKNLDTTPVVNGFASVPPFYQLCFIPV

Key:
[1] = Metabolic stability in cryopreserved hepatocytes, rat; format: in vitro ADME, Sprague Dawley rat
Procedure: BEA (10 mM) was incubated in duplicate in a 96-well plate containing a suspension of mouse, rat, monkey, dog, or human hepatocytes (0.5 × 10^6 cells/mL) at 37 °C for 1.5 h in a controlled atmosphere (5% CO2, 95% humidified incubator). BEA and the control were prepared with 50 μL of DMSO and 450 μL of acetonitrile (ACN) to achieve a final concentration of 1 μM, and then spiked into each well of 96-well plates in duplicates. Samples were withdrawn from the reaction mixture at 0, 15, 30, 60, and 90 min and were quenched with stop solution (acetonitrile containing 200 ng/mL tolbutamide and 200 ng/mL labetalol as internal standards). A cocktail of 7-ethoxycoumarin (Lot#: I1825085) was used as the positive control for the assay. The analytical plates were sealed and stored at 4 °C until LC-MS/MS analysis. The data obtained from the BEA metabolic stability assays were used to calculate the intrinsic clearance and remaining percentages, as described in Table 4 and Figure 4.
The remaining percentages of test articles after incubation were calculated by the following equations:(7) %Remainingat Appointed Time=Peak Area Ratios of Test Article versus Internal Standard at Appointed Time/Peak Area Ratios of Test Article versus Internal Standard 0 min
We used the equation of first order kinetics to calculate T1/2 and CLint: […]

[2] = Plasma stability, dog plasma; format: in vitro ADME; settings: dog plasma (stated for the plasma of the five species)
Procedure: (§1) The pooled frozen plasma was thawed in a water bath at 37 °C prior to the experiment. Plasma was centrifuged at 4000 rpm for 5 min, and the clots, if any, were removed. Using an Apricot automation workstation, blank plasma (98 μL/well) was added to six 96-well reaction plates (Blank, T0, T10, T30, T60, and T120). An Apricot automation workstation was used to add working solution (2 μL/well, 100 μM) to all reaction plates except the Blank plate (T0, T10, T30, T60, and T120). All reaction plates containing mixtures of compound and plasma were incubated at 37 °C in a water bath. At the end of the incubation, 400 μL of stop solution (200 ng/mL tolbutamide and 200 ng/mL labetalol in acetonitrile) was added to precipitate the protein, and the mixture was mixed thoroughly. Samples were then vortexed and centrifuged (20 min, 4000 rpm, 4 °C). After centrifugation, an Apricot automation workstation was used to transfer 50 μL of supernatant into 100 μL of HPLC water. […] The % remaining test compound after incubation in plasma was calculated using the following equation:(11) % Remaining= PAR at appointed incubation time/PAR at T0 time×100 where PAR is the peak area ratio of analyte versus internal standard (IS). […]

[3] = Metabolic stability in liver microsomes, RLM; format: in vitro ADME, Sprague Dawley rat; settings: scaled from RLM CLint(mic)
[4] = Metabolite identification by LC-UV-MS^n in human liver microsomes; format: in vitro ADME; set-up: key to Detected in liver microsomes: Human: +: metabolite was detected in liver microsomes; -: metabolite was not detected in liver microsomes
Procedure: The objectives of this study were to search for and to identify the metabolites of BEA in liver microsomes from mice, rats, dogs, monkeys and humans by LC-UV-MS^n (n = 1~2) (based on peak intensity ≥ 1% of total drug related components), and to propose its metabolic pathways.
The test compound BEA at 10 µM was incubated with liver microsomes at 37 °C for 60 min. The positive control, 7-ethoxycoumarin (7-EC) at 10 µM, was run concurrently to assess Phase I metabolic activities in liver microsomes. […] After incubation, the samples were analyzed by LC-UV-MS (Table S7). The structures of the metabolites were proposed based on the interpretation of their MS and MS2 data. The results are presented in Table 6 and Figure 6. %Total=Peak Area of a Releted Component/Peak Area of Total Releted Component×100%

[5] = Plasma stability, monkey plasma; format: in vitro ADME; settings: 37 °C, n = 2
Procedure: as §1

[6] = molecular target: T1, CYP2C9 (Homo sapiens, UniProt P11712); format: in vitro ADME; settings: HLMs
T1 construct: tissue Corning or Xenotech; host or cells: human liver microsomes (mixed gender)

Substance: Beauvericin
- CLint (hep) (μL/min/10^6) [1]: 18.3 μL/min/10^6
- T1/2 ([1]; 0.5 × 10^6 cells/mL, 1 μM, n = 2): > 1 h and 1.26 h
- T1/2 in plasma [2]: approximately 5 h
- CLint(liver) [3]: 97.6 mL/min/kg
- Detected in liver microsomes: Human ([4]; BEA 10 µM, 37 °C, 60 min): +
- Number of metabolites detected ([4]; HLM): 13
- T1/2 [5]: >4.82 h
- CYP2C9 inhibitor class [6]: weak inhibitor (IC50 > 10 μM—weak inhibitor)

Values joined by “and” are separate entries in the source; they are usually repeats but may differ in a detail not shown here. Identical values can stand only once.
